Data as given in PubChem BioAssay AID624099 (ICCB-Longwood, 2012)

Assay: 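Knock-downs relieving repression by E2 of an HPV18 LCR luciferase reporter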 (primary screen)
Cells: human C33A cervical carcinoma cells (HPV-negative) stably expressing BPV1 E2 and an HPV18 LCR luciferase reporter
Reagents: siRNA pool against human genes, 40 nM
Time to read-out: 72 h
Detection: 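Per-well luciferase luminescence, z-scored on each plate against the plate mean and SD with control wells left out, then averaged across three replicate plates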
Direction: mean z-score and z-score: higher = stronger reporter signal, weaker E2 silencing
Call rule: 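Hit if mean z-score reaches 2 and two or more of three replicate z-scores also reach 2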
Shown is a random part of about 21,000 reagents. 497 of them (2.4%) were called active. 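Higher z means weaker E2 silencing; only reporter increases were scored, and knock-downs that hurt cell survival may mask genuine repressor factors.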 Reagents against one gene are numbered here.

target	pool no.	mean z-score	z-score, replicate A	z-score, replicate B	z-score, replicate C	Outcome
PHF20L1 (PHD finger protein 20 like 1)	1	0.01	-0.41	0.34	0.1	inactive
CDK14 (cyclin dependent kinase 14)	1	0.97	1.15	0.78	0.99	inactive
SLC9A3	1	0.28	0.2	0.49	0.15	inactive
LOC401038 (retired record)	1	-1.65	-1.79	-1.31	-1.86	inactive
LINC02591 (long independently transcribed non-coding RNA 2591)	1	-0.12	0.3	-0.3	-0.36	inactive
LINC02591 (long independently transcribed non-coding RNA 2591)	2	-0.86	-0.94	-0.57	-1.06	inactive
FUT9 (fucosyltransferase 9)	1	0.27	0.79	0.16	-0.15	inactive
HMGCLL1 (3-hydroxy-3-methylglutaryl-CoA lyase like 1)	1	0.16	0.03	0.08	0.36	inactive
LYSMD1 (LysM domain containing 1)	1	-0.26	-0.25	-0.49	-0.06	inactive
CEP295 (centrosomal protein 295)	1	-0.95	-0.75	-0.84	-1.27	inactive
CCT3 (chaperonin containing TCP1 subunit 3)	1	0.5	0.67	0.48	0.37	inactive
CCKBR (cholecystokinin B receptor)	1	0.1	0.11	0	0.2	inactive
DPEP3 (dipeptidase 3)	1	0.57	0.17	0.37	1.18	inactive
LANCL1 (LanC like glutathione S-transferase 1)	1	1.18	1.17	1.15	1.23	inactive
NACA4P (NACA family member 4, pseudogene)	1	-0.23	-0.26	-0.08	-0.34	inactive
GALNT8 (polypeptide N-acetylgalactosaminyltransferase 8)	1	0.12	0.41	-0.37	0.32	inactive
RFT1 (RFT1 glycolipid translocator homolog)	1	-0.5	-0.16	-0.56	-0.78	inactive
RFT1 (RFT1 glycolipid translocator homolog)	2	0.16	0.4	-0.08		inactive
SPATA6L (spermatogenesis associated 6 like)	1	-0.27	-0.08	-0.38	-0.34	inactive
VGLL4 (vestigial like family member 4)	1	1.62	1.63	1.37	1.85	inactive
DYNLT5 (dynein light chain Tctex-type family member 5)	1	-0.66	-0.56	-0.53	-0.89	inactive
INTS10 (integrator complex subunit 10)	1	-0.07	-0.15	-0.69	0.62	inactive
SDS (serine dehydratase)	1	-0.48	-0.41	-0.47	-0.57	inactive
ITM2A (integral membrane protein 2A)	1	-0.26	-0.22	-0.38	-0.18	inactive
LOC400829 (retired record)	1	0.2	0.14	0.41	0.06	inactive
DIO3 (iodothyronine deiodinase 3)	1	1.55	1.03	1.91	1.71	inactive
IGSF22 (immunoglobulin superfamily member 22)	1	-0.98	-0.99	-0.97	-0.98	inactive
CDADC1 (cytidine and dCMP deaminase domain containing 1)	1	-0.34	-0.78	-0.58	0.35	inactive

Only “z-score, replicate C”, for 3 of the entries above:
SDS (serine dehydratase) = -0.57
ITM2A (integral membrane protein 2A) = -0.18
LOC400829 (retired record) = 0.06

More reagents follow:
target	pool no.	mean z-score	z-score, replicate A	z-score, replicate B	z-score, replicate C	Outcome
LCE3B (late cornified envelope 3B)	1	3.72	3.94	3.31	3.91	active
MCC (MCC regulator of Wnt signaling pathway)	1	-0.21	-0.04	-0.23	-0.35	inactive
VPS35L (VPS35 endosomal protein sorting factor like)	1	0.88	0.92	0.9	0.82	inactive
PRDM1 (PR/SET domain 1)	1	0.62	0.76	0.5	0.6	inactive
PIGG	1	1.5	1.47	1.85	1.18	inactive
C17orf67 (chromosome 17 open reading frame 67)	1	-0.59	0.05	-0.74	-1.08	inactive
CHRND (cholinergic receptor nicotinic delta subunit)	1	-0.3	-0.24	-0.41	-0.26	inactive
IPCEF1 (interaction protein for cytohesin exchange factors 1)	1	-0.83	-0.98	-0.69	-0.81	inactive
CCDC125 (coiled-coil domain containing 125)	1	1.76	2.02	1.54	1.74	inactive
CHST15 (carbohydrate sulfotransferase 15)	1	2.95	3.85	2.71	2.29	active
RIT2 (Ras like without CAAX 2)	1	-0.46	-0.47	-0.4	-0.5	inactive
RAB3GAP2 (RAB3 GTPase activating non-catalytic protein subunit 2)	1	0.25	0.44	0.21	0.09	inactive
UBE2L3 (ubiquitin conjugating enzyme E2 L3)	1	-0.58	-0.58	-0.68	-0.49	inactive
DEFB123 (defensin beta 123)	1	-0.24	0	-0.29	-0.41	inactive
ORMDL1 (ORMDL sphingolipid biosynthesis regulator 1)	1	0.62	0.79	0.34	0.73	inactive
RNF32-DT (RNF32 divergent transcript)	1	0.76	1.08	0.78	0.43	inactive
USP11 (ubiquitin specific peptidase 11)	1	-0.96	-0.78	-1.04	-1.07	inactive
EPB41L3 (erythrocyte membrane protein band 4.1 like 3)	1	0.47	0.94	0.07	0.41	inactive
CNMD (chondromodulin)	1	0.24	0.26	0.29	0.16	inactive
SDCBP (syndecan binding protein)	1	1.04	0.86	0.85	1.4	inactive
FAM228B (family with sequence similarity 228 member B)	1	-0.05	-0.04	0.14	-0.25	inactive
DYNC2LI1 (dynein cytoplasmic 2 light intermediate chain 1)	1	0.88	0.65	1.12	0.88	inactive
LINC00635 (long independently transcribed non-coding RNA 635)	1	-0.12	-0.61	0.3	-0.06	inactive
BMP3 (bone morphogenetic protein 3)	1	1.77	2.31	1.55	1.45	inactive
EFCAB6 (EF-hand calcium binding domain 6)	1	-0.53	-0.31	-0.66	-0.62	inactive
RMDN1 (regulator of microtubule dynamics 1)	1	-0.02	-0.14	-0.05	0.14	inactive
TRIM14 (tripartite motif containing 14)	1	-1.27	-0.92	-1.3	-1.6	inactive
TUSC8 (tumor suppressor candidate 8)	1	0	0.16	-0.06	-0.1	inactive
ATP6V0A4 (ATPase H+ transporting V0 subunit a4)	1	0.11	0.26	0.15	-0.09	inactive
